A mixed list of measured activities; the numbers were collected in NIAID ChemDB.

Common to all: growth or infection tests; organism: Herpes simplex virus 1; cell line: VERO; read-out: EC50

Blank or dashed fields: not listed here.

O=C1Nc2ccccc2C1=O ; method: virus yield ; value: >50 µM
O=c1ccn(N2C[C@H](CO)[C@H]2CO)c(=O)[nH]1 ; method: plaque count ; value: >10 µg/mL
Nc1nc2c(ncn2[C@@H]2C[C@H](CO)[C@H]2CO)c(=O)[nH]1 ; strain: TK- ; method: cytopathic effect ; value: 11 µg/mL
Cc1cn([C@@H]2O[C@H](CO)[C@@H](O)[C@@H]2O)c(=O)[nH]c1=O ; strain: WT-34 ; method: plaque count ; value: 1.6 µM
O=c1[nH]c(=O)n([C@H]2C[C@H](O)[C@@H](CO)O2)cc1C1=C(F)C(F)(F)C(F)(F)C(F)(F)C1(F)F ; method: plaque count ; value: >100 µg/mL
C#Cc1cnc(C(=O)c2ccccc2)nc1C(=O)c1ccccc1 ; method: plaque count ; value: >100 µM
CCCCCc1nc2n(n1)C(c1ccc([N+](=O)[O-])cc1)CC(=O)N2 ; strain: 7401H ; method: plaque count ; value: >50 µg/mL
C[C@@H]1CC[C@H]2C(C)(C)[C@H](O)CC[C@]2(C)C12Cc1c(O)cc(C=O)c(C=O)c1O2 ; value: 4.32 µg/mL
CC(=O)O[C@@H]1C[C@H](O)C23COC(O)[C@]1(C)C2C[C@@H](O)C1(C)C3C(=O)[C@H](OC(C)=O)[C@@]2(C)[C@H](c3ccoc3)CC3OC312 ; method: ELISA ; value: 1.46 µg/mL
Nc1nc2c(ncn2C[C@]2(CO)C[C@H]2CO)c(=O)[nH]1 ; method: cytopathic effect ; value: 1.3 µg/mL
O=c1[nH]c(=O)n([C@H]2C[C@H](O)[C@@H](CO)O2)cc1C1=C(F)C(F)(F)C(F)(F)C1(F)F ; method: plaque count ; value: >100 µg/mL
CC[C@@H](C(C)C)[C@@H](O)[C@H](O)[C@@H](C)[C@H]1CC[C@H]2[C@@H]3CC(=O)[C@@]4(O)C[C@@H](OC(C)=O)CC[C@]4(C)[C@H]3CC[C@]12C ; strain: F ; method: plaque count ; value: 57.6 µM
Nc1ncnc2c1ncn2C[C@H]1C[C@H]1[C@H](O)CO ; value: >50 µM
Cc1ccc2c(c1)C(=O)C(=O)N2 ; method: virus yield ; value: >50 µM
O=c1[nH]cnc2c1ncn2C[C@H]1C[C@H]1CO ; value: >50 µM
CCCCCc1nc2n(n1)C(c1ccccc1)CC(=O)N2 ; strain: 7401H ; method: plaque count ; value: <50 µg/mL
Nc1nc2c(ncn2[C@@H]2C[C@H](CO)C3CC32)c(=O)[nH]1 ; method: cytopathic effect ; value: 1–10 µg/mL
Fc1cccc2nc3c(cnc4c3cnn4-c3ccccc3)c(Cl)c12 ; method: virus yield ; value: 0.07 µM
CC[C@@H](C(C)C)[C@@H](O)[C@H](O)[C@@H](C)[C@H]1CC[C@H]2[C@@H]3CC(=O)[C@@]4(O)C[C@@H](Br)CC[C@]4(C)[C@H]3CC[C@]12C ; strain: F ; method: plaque count ; value: 17.7 µM
CCCCCCCC/C=C\CCCCCCCC(=O)OC(COC(=O)CCCCCCCCCCC)CO[C@@H]1O[C@H](CO)[C@@H](O)[C@H](O)[C@H]1O ; strain: KOS ; method: plaque count ; value: >50 µg/mL
CCOP(=O)(OCC)C1=NOC(Cn2cc(F)c(=O)[nH]c2=O)C1 ; method: plaque count ; value: >400 µM
O=C1C(=O)N([C@@H]2O[C@H](COCc3ccccc3)[C@@H](OCc3ccccc3)[C@H]2OCc2ccccc2)c2cc(Br)cc(Br)c21 ; method: virus yield ; value: <50 µM
Nc1nc2c(ncn2COC(CO)CO)c(=O)[nH]1 ; strain: F ; method: plaque count ; value: 0.2 µM
OC[C@H]1C[C@@H](n2cnc3c(Cl)ncnc32)C2CC21 ; method: cytopathic effect ; value: 0.1–1 µg/mL
COc1ccc(C2CC(=O)Nc3nc(-c4cccnc4)nn32)cc1 ; strain: 7401H ; method: plaque count ; value: >50 µg/mL
Nc1ncnc2c1ncn2[C@@H]1C[C@H](CO)C2CC21 ; method: cytopathic effect ; value: 0.1–1 µg/mL
Cc1cn(C[C@H]2C[C@H]2[C@H](O)CO)c(=O)[nH]c1=O ; value: >50 µM
Nc1nc2c(ncn2COC(CO)CO)c(=O)[nH]1 ; method: plaque count ; value: 0.57 µM
Nc1nc(=O)n([C@@H]2O[C@H](CO)[C@@H](O)[C@@H]2F)cc1I ; strain: MGH 10 ; method: plaque count ; value: 0.5 µM
NC1=NC2C(C=CN2CC(CO)CCO)C(=O)N1 ; strain: F delta305 (TK-) ; method: plaque count ; value: 29 µM
CCCCCCCCCCCCCCCCCCCCCC(=O)OC(COC(=O)CCCCCCCCCCCCCCCCC)CO[C@@H]1O[C@H](CO)[C@@H](O)[C@H](O)[C@H]1O ; strain: KOS ; method: plaque count ; value: >50 µg/mL
Nc1ncnc2c1ncn2[C@@H]1C[C@H](CO)[C@@H](O)[C@@H]1O ; strain: WT-34 ; method: plaque count ; value: 10 µM
O=C1CC(c2ccccc2)n2nc(-c3cccnc3)nc2N1 ; strain: 7401H ; method: plaque count ; value: >50 µg/mL
O=C(OC1C2c3c(O)cc(O)cc3C[C@@H]1c1cc(O)c(O)c(O)c1Oc1cc(cc(O)c1O)C(=O)O[C@@H]1Cc3c(O)cc(O)c2c3O[C@@H]1c1cc(O)c(O)c(O)c1)c1cc(O)c(O)c(O)c1 ; strain: KOS ; method: plaque count ; value: 11.4 µM
Nc1nc(=O)n([C@@H]2O[C@H](CO)[C@@H](O)[C@@H]2F)cc1I ; strain: F ; method: plaque count ; value: 0.023 µM
O=C1CC(c2ccc([N+](=O)[O-])cc2)n2nc(-c3ccncc3)nc2N1 ; strain: 7401H ; method: plaque count ; value: >50 µg/mL
Nc1nc2c(ncn2C[C@H]2C[C@H]2[C@H](O)CO)c(=O)[nH]1 ; value: >50 µM
Nc1nc2c(ncn2COCCO)c(=O)[nH]1 ; strain: K1R ; method: cytopathic effect ; value: 330 µM
CCCCCCCCCCCC(=O)OCC(CO[C@@H]1O[C@H](CO)[C@H](O)[C@H](O)[C@H]1O)OC(=O)CCCCCCCCCCC ; strain: KOS ; method: plaque count ; value: <50 µg/mL
CCc1cn([C@H]2C[C@H](O)[C@@H](CO)O2)c(=O)[nH]c1=O ; strain: F-ACV-C4 ; method: plaque count ; value: >400 µM
C#Cc1cnc(OC)nc1OC ; method: plaque count ; value: >100 µM
CCCCCCCCCCCCCCCCCC(=O)OCC(CO[C@@H]1O[C@H](CO)[C@@H](O)[C@H](O)[C@H]1O)OC(=O)CCCCCCCCCCC ; strain: KOS ; method: plaque count ; value: >50 µg/mL
Cc1ccc(SCC(CF)OCn2cc(F)c(=O)[nH]c2=O)cc1 ; method: plaque count ; value: >50 µg/mL
Cc1cc([C@@H](O)[C@@H](O)CO)co1 ; strain: MFPT-resistant-1 ; method: plaque count ; value: 170 µM
Nc1nc2c(ncn2CCC(CO)CO)c(=O)[nH]1 ; strain: C1 (101) ; method: plaque count ; value: 1.1 µg/mL
Nc1nc2c(ncn2COCCO)c(=O)[nH]1 ; strain: KOS ; method: plaque count ; value: 3.9 µM
CC/C=C/C/C=C/C/C=C/CCCCCCCC(=O)OCC(CO[C@@H]1O[C@H](CO)[C@@H](O)[C@H](O)[C@H]1O)OC(=O)CCCCCCC/C=C\C/C=C\CCCCC ; strain: KOS ; method: plaque count ; value: <50 µg/mL
Nc1ncc2c(ncn2COC(CO)CO)n1 ; strain: K1R ; method: cytopathic effect ; value: 2.2 µM
O=c1[nH]c(=O)n([C@H]2C[C@H](O)[C@@H](CO)O2)cc1/C(F)=C(\F)Cl ; method: plaque count ; value: >100 µg/mL
O=c1[nH]c(=O)n([C@@H]2O[C@H](CO)[C@@H](O)[C@@H]2F)cc1I ; strain: F-FIAU-C1 ; method: plaque count ; value: 8.5 µM
Cc1cn([C@@H]2O[C@H](CO)[C@@H](O)[C@@H]2F)c(=O)[nH]c1=O ; strain: RE6 ; method: plaque count ; value: 0.51 µM
Cc1ccc(S(=O)C[C@H](CF)OCn2cc(F)c(=O)[nH]c2=O)cc1 ; method: plaque count ; value: >200 µg/mL
COc1ncc(C#C[Si](C)(C)C)c(OC)n1 ; method: plaque count ; value: >100 µM
CCCc1nc2n(n1)C(c1ccccc1)CC(=O)N2 ; strain: 7401H ; method: plaque count ; value: >50 µg/mL
Cc1cn([C@@H]2O[C@H](CO)[C@@H](O)[C@@H]2F)c(=O)[nH]c1=O ; strain: F ; method: plaque count ; value: 0.028 µM
O=C1CC(c2ccccc2)n2nc(-c3ccc4ccccc4c3)nc2N1 ; strain: 7401H ; method: plaque count ; value: >50 µg/mL
CC[C@@H](C(C)C)[C@@H](O)[C@H](O)[C@@H](C)[C@H]1CC[C@H]2[C@@H]3CC(=O)[C@H]4C[C@@H](OC(C)=O)CC[C@]4(C)[C@H]3CC[C@]12C ; strain: F ; method: plaque count ; value: 22.4 µM
O=C1CC(c2ccc([N+](=O)[O-])cc2)n2nc(-c3cccnc3)nc2N1 ; strain: 7401H ; method: plaque count ; value: >50 µg/mL
Nc1nc2c(ncn2CC[C@@H](O)CO)c(=O)[nH]1 ; strain: SC16 ; method: plaque count ; value: 5 µM
O=C1Nc2cc(Br)cc(Br)c2C1=O ; method: virus yield ; value: >50 µM

The last 6 rows once more:

smiles,strain,method,value
Cc1cn([C@@H]2O[C@H](CO)[C@@H](O)[C@@H]2F)c(=O)[nH]c1=O,F,plaque count,0.028 µM
O=C1CC(c2ccccc2)n2nc(-c3ccc4ccccc4c3)nc2N1,7401H,plaque count,>50 µg/mL
CC[C@@H](C(C)C)[C@@H](O)[C@H](O)[C@@H](C)[C@H]1CC[C@H]2[C@@H]3CC(=O)[C@H]4C[C@@H](OC(C)=O)CC[C@]4(C)[C@H]3CC[C@]12C,F,plaque count,22.4 µM
O=C1CC(c2ccc([N+](=O)[O-])cc2)n2nc(-c3cccnc3)nc2N1,7401H,plaque count,>50 µg/mL
Nc1nc2c(ncn2CC[C@@H](O)CO)c(=O)[nH]1,SC16,plaque count,5 µM
O=C1Nc2cc(Br)cc(Br)c2C1=O,-,virus yield,>50 µM

Neighbouring rows are from separate reports. Two numbers with a dash give a range or band. ECn is the concentration giving n% inhibition of infection, replication or growth.